Anti-infective test results gathered from many reports (values: NIAID ChemDB through PubChem).

Shared fields: whole-cell or culture tests; agent: Candida albicans; endpoint: MIC

An empty or dashed field is not shown. a–b is a range or a potency band. Conditions beyond the fields shown may differ between rows.

SMILES,strain or isolate,method,result
CCOC(=O)c1cc(-c2ccccc2)n(CCn2c([N+](=O)[O-])cnc2C)c1C,,,>1024 µg/mL
O=C(Nc1ccc2oc(-c3ccc(F)cc3)nc2c1)c1ccccc1,RSKK 628,,25 µg/mL
CCC(=O)N1N=C(c2ccccc2)CC1c1nnc2c3ccccc3c(=O)[nH]n12,,,100 µg/mL
C/C(=N\NC(=O)CSc1n[nH]c(C)n1)c1ccccc1[N+](=O)[O-],ATCC 90028,,400 µg/mL
CCOC(=O)c1c(O)n(Cc2ccccc2)c(-c2ccccc2)nc1=S,,,100 µg/mL
Cn1ccc(C(Cc2ccc(Cl)cc2Cl)n2ccnc2)c1,,,>300 µM
C[C@@H]1[C@H](O)[C@@H](C)/C=C/C=C/C=C/C=C/C=C/C=C/C=C/[C@H](O[C@@H]2O[C@H](C)[C@@H](O)[C@H](N)[C@@H]2O)C[C@@H]2O[C@](O)(C[C@@H](O)C[C@@H](O)[C@H](O)CC[C@@H](O)C[C@@H](O)CC(=O)O[C@H]1C)C[C@H](O)[C@H]2C(=O)O,UMIP 48.72,broth dilution,0.064 µg/mL
CO[C@@H](n1cncn1)[C@](O)(Cn1ccnc1)c1ccc(F)cc1F,,,>100 µg/mL
Clc1ccc(CC(c2cccs2)n2ccnc2)cc1,,,75 µM
Cc1nc(C)c(C(=O)NNC(=S)NC23CC4CC(CC(C4)C2)C3)s1,ATCC 14053,,12.5 µg/mL
CO[C@@H](n1cnc(C)c1)[C@](O)(Cn1cncn1)c1ccc(Cl)cc1,,,>100 µg/mL
Clc1ccccc1C(c1ccccc1)(c1ccccc1)n1ccnc1,ATCC 90028,,0.5 µg/mL
CN(CCCC#CC(C)(C)C)c1cccc2c1CCC(=O)N2,Clinical isolate 19,,31.25 µg/mL
CS[C@@H](n1cncn1)[C@](O)(Cn1cncn1)c1ccc(Cl)cc1,,,>100 µg/mL
CCC(=O)c1c(O)n(CCOC(C)=O)c(-c2ccccc2)nc1=S,,,>100 µg/mL
O=[n+]1c(Sc2ccccc2)c(CBr)n([O-])c2ccccc21,Clinical isolate 20,,15.6 µg/mL
Cc1nnsc1C(=O)NNC(=S)NC12CC3CC(CC(C3)C1)C2,ATCC 14053,,12.5 µg/mL
CCOc1cc2c(cc1F)n([O-])c(C)c(S(=O)(=O)c1ccccc1)[n+]2=O,Clinical isolate 23,,15.6 µg/mL
Cc1ccc(NC2N3N=C(c4ccccc4)CC3=C3N4NC(=O)c5ccccc5C4=NN32)cc1,,,>200 µg/mL
CCCCCCCCCCCCCCCCCC(=O)NC1CC(O)C(O)NC(=O)C2C(O)C(C)CN2C(=O)C(C(C)O)NC(=O)C(C(O)C(O)c2ccc(O)cc2)NC(=O)C2CC(O)CN2C(=O)C(C(C)O)NC1=O,MY1208,,1 µg/mL
CN(C)c1ccc(-c2nc3cc(NC(=O)OCc4ccccc4)ccc3o2)cc1,RSKK 628,,25 µg/mL
Cn1cccc1C(Cc1ccc(N)cc1)n1ccnc1,,,>300 µM
C=C1C(=O)OC2C3C4(OC4[C@H](O)[C@@]3(C)O)C(O)(O)C[C@@H](O)[C@@H]12,,,20 µg/mL
C/C(=N\NC(=O)CSc1ncn[nH]1)c1ccc([N+](=O)[O-])cc1,ATCC 90028,,100 µg/mL
O=[N+]([O-])c1ccc(CC(c2ccc(Cl)s2)n2ccnc2)cc1,,,75 µM
C[C@@H]1[C@H](O)[C@@H](C)/C=C/C=C/C=C/C=C/C=C/C=C/C=C/[C@H](O[C@@H]2O[C@H](C)[C@@H](O)[C@H](N)[C@@H]2O)C[C@@H]2O[C@](O)(C[C@@H](O)C[C@@H](O)[C@H](O)CC[C@@H](O)C[C@@H](O)CC(=O)O[C@H]1C)C[C@H](O)[C@H]2C(=O)O,ATCC 90028,,3.1–6.3 µM
CCOc1cc2c(cc1F)n([O-])c(C)c(Cl)[n+]2=O,Clinical isolate 18,,7.8 µg/mL
O=C(CCc1ccccc1)Nc1ccc2oc(-c3ccc(F)cc3)nc2c1,RSKK 628,,12.5 µg/mL
CCCCCOc1ccc(-c2ccc(-c3ccc(C(=O)N[C@H]4C[C@@H](O)[C@@H](O)NC(=O)[C@@H]5[C@@H](O)[C@@H](C)CN5C(=O)[C@H]([C@H](C)O)NC(=O)[C@H]([C@H](O)[C@@H](O)c5ccc(O)cc5)NC(=O)[C@@H]5C[C@@H](O)CN5C(=O)[C@H]([C@H](C)O)NC4=O)cc3)cc2)cc1,M61,broth dilution,0.003 µg/mL
O=c1[nH]n2c(C3CC(c4ccccc4)=NN3c3ccccc3)nnc2c2ccccc12,,,50 µg/mL
Cc1nnsc1C(=O)NNC(=S)Nc1ccc2ccccc2c1,ATCC 14053,,25 µg/mL
C[C@@H](c1ncncc1F)[C@](O)(Cn1cncn1)c1ccc(F)cc1F,M61,broth dilution,0.01 µg/mL
C/C(=N\NC(=O)CSc1ncn[nH]1)c1ccccc1Cl,ATCC 90028,,200 µg/mL
CCCCn1c(-c2sc(C)nc2C)n[nH]c1=S,ATCC 14053,,12.5 µg/mL
Cn1cccc1C(Cc1ccc(Cl)cc1)n1ccnc1,,,>300 µM
C=C1CCN(C(C)C(O)(Cn2cncn2)c2ccc(F)cc2F)CC1,KC-03,,<0.025 µg/mL
CCc1ccc(-c2nc3cc(NC(=O)SCc4ccccc4)ccc3o2)cc1,RSKK 628,,25 µg/mL
CO[C@@H](n1ccnc1)[C@](O)(Cn1cncn1)c1ccc(Cl)cc1,,,>100 µg/mL
CCc1nc(SCC(=O)N/N=C(\C)c2ccccc2[N+](=O)[O-])n[nH]1,ATCC 90028,,400 µg/mL
Cc1ccc(C(C)C)cc1,ATCC 10231,,5–10 µg/mL
Cn1cccc1C(Cc1ccc(Cl)cc1Cl)n1ccnc1,,,>300 µM
C/C(=N\NC(=O)CSc1n[nH]c(C)n1)c1ccc(O)cc1,ATCC 90028,,200 µg/mL
CO[C@@H](n1cccn1)[C@@](O)(Cn1ccnc1)c1ccc(F)cc1F,,,>100 µg/mL
CCCCCCCCOc1ccc(C(=O)NC2C[C@@H](O)[C@@H](O)NC(=O)C3[C@@H](O)[C@@H](C)CN3C(=O)C(C(C)O)NC(=O)C([C@H](O)[C@@H](O)c3ccc(O)cc3)NC(=O)C3C[C@@H](O)CN3C(=O)C(C(C)O)NC2=O)cc1,MY1585,,1 µg/mL
CC(=O)c1c(O)n(CCO)c(-c2ccccc2)nc1=S,,,>100 µg/mL
C[C@H]1[C@H](O)[C@@H](C)/C=C/C=C/C=C/C=C/C=C/C=C/C=C/[C@H](O[C@@H]2O[C@H](C)[C@@H](O)[C@H](N)[C@@H]2O)C[C@@H]2O[C@](O)(C[C@@H](O)C[C@@H](O)CC[C@H](O)[C@@H](O)C[C@@H](O)CC(=O)O[C@H]1C)C[C@H](O)[C@H]2C(=O)O,,,0.04 µg/mL
O=C(Cc1nc2ccccc2o1)C(F)(F)F,,,12 µg/mL
N#C/C=C1\NC(c2ccccc2)=CC(c2nnc3c4ccccc4c(=O)[nH]n23)=C1C#N,,,>200 µg/mL
CC(N1CCCCC1)C(O)(Cn1cncn1)c1ccc(F)cc1F,KC-03,,0.05 µg/mL
CN(C)c1ccc(-c2nc3cc(NC(=O)SCc4ccccc4)ccc3o2)cc1,RSKK 628,,25 µg/mL
Nc1[nH]c(=O)ncc1F,2659,,0.13 µg/mL
CCOC(=O)c1cc(-c2ccc(Cl)cc2)n(CCn2c([N+](=O)[O-])cnc2C)c1C,,,>1024 µg/mL
O=C(Nc1ccc2oc(-c3ccc(F)cc3)nc2c1)OCc1ccccc1,RSKK 628,,25 µg/mL
Clc1ccc(CC(c2cccs2)n2ccnc2)c(Cl)c1,,,>37 µM

Again, the opening 3 rows:

SMILES,strain or isolate,method,result
CCOC(=O)c1cc(-c2ccccc2)n(CCn2c([N+](=O)[O-])cnc2C)c1C,,,>1024 µg/mL
O=C(Nc1ccc2oc(-c3ccc(F)cc3)nc2c1)c1ccccc1,RSKK 628,,25 µg/mL
CCC(=O)N1N=C(c2ccccc2)CC1c1nnc2c3ccccc3c(=O)[nH]n12,,,100 µg/mL